Assay results taken from paper PMC4176424, “Thiolation-enhanced substrate recognition by D-alanyl carrier protein ligase DltA from Bacillus cereus” (F1000Research, 2014).

How the values were obtained:
C[C@H](N)C(=O)O = assay: purified protein; settings: 5 mM ATP, 5 mM CoA, 10 mM MgCl2, 0.1 M KCl, pH 7.2
C[C@@H](N)C(=O)O = assay: purified protein; settings: 5 mM ATP, 5 mM CoA, 10 mM MgCl2, 0.1 M KCl, pH 7.2

## BcDltA (D-alanyl carrier protein ligase DltA) (Bacillus cereus ATCC 14579; C269A)
C[C@H](N)C(=O)O
  Km: 8.8 ± 0.5 × 10^-3 M
  kcat: 0.275 s⁻¹
  kcat/Km: 31.7 M⁻¹ s⁻¹
C[C@@H](N)C(=O)O
  Km: 0.50 ± 0.05 × 10^-3 M
  kcat: 0.263 s⁻¹
  kcat/Km: 533 M⁻¹ s⁻¹
